Measured values from several laboratories, pooled; numbers as filed in NIAID ChemDB.

Shared fields: tests in culture; organism: Aspergillus flavus

Blank or dashed fields: not listed here. Percent inhibition refers to the dose given; in toxicity tests it is the harm to the cells. A number after MIC or MFC names an inhibition level or a share of isolates. Lines come from different laboratories, so protocols vary. Two numbers with a dash give a range or band. Zone: diameter of growth inhibition.

| smiles | strain or isolate | read by | setting | measure | dose | result |
|---|---|---|---|---|---|---|
| Cn1c(=O)c(-c2[nH][nH]c(=O)c2N=Nc2ccccc2Br)c(O)c2ccccc21 | ATCC 28542 |  |  | MIC |  | >100 µg/mL |
| Cc1cc(O)c2c(c1)C(=O)c1cc(O)c(O)c(O)c1C2=O |  | visual reading |  | MIC100 |  | 142–284 µM |
| Cc1ccc2c(c1)C(C=NNC(=O)N1c3ccccc3C=Cc3ccccc31)C(c1ccccc1)=N2 | MTCC-1973 | agar diffusion |  | zone | 750 µg/mL | 3 mm |
| C[C@H]1[C@H](O)[C@@H](C)/C=C/C=C/C=C/C=C/C=C/C=C/C=C/[C@H](O[C@@H]2O[C@H](C)[C@@H](O)[C@H](N)[C@@H]2O)C[C@@H]2O[C@](O)(C[C@@H](O)C[C@@H](O)CC[C@H](O)[C@@H](O)C[C@@H](O)CC(=O)O[C@H]1C)C[C@H](O)[C@H]2C(=O)O | ATCC 28542 |  |  | MIC |  | >100 µg/mL |
| O=C(NN=CC1C(c2ccccc2)=Nc2ccc(Cl)cc21)N1c2ccccc2C=Cc2ccccc21 | MTCC-1973 | agar diffusion |  | zone | 750 µg/mL | 12 mm |
| CN(C)C=O |  |  |  | zone | 30 µg/mL | 6 mm |
| C[C@H]1[C@H](O)[C@@H](C)/C=C/C=C/C=C/C=C/C=C/C=C/C=C/[C@H](O[C@@H]2O[C@H](C)[C@@H](O)[C@H](N)[C@@H]2O)C[C@@H]2O[C@](O)(C[C@@H](O)C[C@@H](O)CC[C@H](O)[C@@H](O)C[C@@H](O)CC(=O)O[C@H]1C)C[C@H](O)[C@H]2C(=O)O | Clinical isolate | XTT |  | MFC |  | 2–4 µg/mL |
| COc1ccc(-c2n[nH]c(COc3ncnc4ccccc34)n2)cc1 | MTCC 277 |  |  | MIC100 |  | 25 µg/mL |
| CSc1ccc(C2CC(c3cccc4c3OCO4)=NN2c2ccccc2)cc1 | NCIM 594 | broth dilution |  | inhibition | 2000 µg/mL | 31.19% |
| CC(=Nc1cccc2cccc(N=C(C)c3c(O)ccc4c(C)cc(=O)oc34)c12)c1c(O)ccc2c(C)cc(=O)oc12 | MTCC 1883 |  |  | zone | 200 µg/mL | 16 mm |
| Cc1cc(C)nc(NS(=O)(=O)c2ccc(N=CNn3c(=S)[nH]nc(/C=C/c4cccs4)c3=O)cc2)n1 |  | agar |  | MIC90 |  | 164 µg/mL |
| CSc1ccc(C2CC(c3ccc(C)cc3)=NN2c2ccccc2)cc1 | NCIM 594 | broth dilution |  | inhibition | 2000 µg/mL | 38.63% |
| CN=C1NN(C(=O)Cc2cc(=O)oc3cc(O)ccc23)C(c2c(O)c3ccccc3oc2=O)=CS1 |  | broth dilution |  | MIC50 |  | 0.1 µg/mL |
| Brc1ccc(-c2n[nH]c(COc3ncnc4ccccc34)n2)cc1 | MTCC 277 |  |  | MIC100 |  | 25 µg/mL |
| CC(=O)N1CCN(c2ccc(OC[C@H]3CO[C@](Cn4ccnc4)(c4ccc(Cl)cc4Cl)O3)cc2)CC1 | Species complex |  |  | MIC50 |  | 1 µg/mL |
| COc1cccc(C2=NN(c3ccccc3)C(c3ccc(SC)cc3)C2)c1 | NCIM 594 | broth dilution |  | inhibition | 2000 µg/mL | 51.53% |
| O=C(NN1C(=O)CSC1C1C(c2ccccc2)=Nc2ccccc21)N1c2ccccc2C=Cc2ccccc21 | MTCC-1973 | agar diffusion |  | zone | 500 µg/mL | 4 mm |
| CC1/C=C/C=C/C=C/C=C/C(O[C@@H]2O[C@H](C)[C@@H](O)[C@H](N)[C@@H]2O)CC2OC(O)(CC(O)CC(O)C(O)/C=C/C(=O)OC1C)CC(O)C2C(=O)O | CGMCC 3.289 | broth dilution |  | MIC100 |  | 25 µg/mL |
| c1csc(-c2n[nH]c(COc3ncnc4ccccc34)n2)c1 | MTCC 277 |  |  | MIC100 |  | 12.5 µg/mL |
| CN=C1NN(C(=O)Cc2cc(=O)oc3cc(O)ccc23)C(c2cc3ccccc3oc2=O)=CS1 |  | broth dilution |  | MIC50 |  | 1 µg/mL |
| Cc1ccc(-c2n[nH]c(COc3ncnc4ccccc34)n2)cc1 | MTCC 277 |  |  | MIC100 |  | 25 µg/mL |
| CCC(C)CC(C)CCCCCCCCC(=O)N[C@H]1C[C@@H](O)[C@H](NCCN)NC(=O)[C@@H]2[C@@H](O)CCN2C(=O)[C@H]([C@H](O)CCN)NC(=O)[C@H]([C@H](O)[C@@H](O)c2ccc(O)cc2)NC(=O)[C@@H]2C[C@@H](O)CN2C(=O)[C@H]([C@@H](C)O)NC1=O |  | broth dilution |  | MEC |  | 0.06 µg/mL |
| C[C@H]1[C@H](O)[C@@H](C)/C=C/C=C/C=C/C=C/C=C/C=C/C=C/[C@H](O[C@@H]2O[C@H](C)[C@@H](O)[C@H](N)[C@@H]2O)C[C@@H]2O[C@](O)(C[C@@H](O)C[C@@H](O)CC[C@H](O)[C@@H](O)C[C@@H](O)CC(=O)O[C@H]1C)C[C@H](O)[C@H]2C(=O)O | NCIM 519 | broth dilution / absorbance |  | MIC99 |  | 0.78 µM |
| CC1CC(c2ccncc2)Nc2ccc(Br)cc21 | ATCC 9170 |  |  | MIC100 |  | >250 µg/mL |
| C[C@H]1[C@H](O)[C@@H](C)/C=C/C=C/C=C/C=C/C=C/C=C/C=C/[C@H](O[C@@H]2O[C@H](C)[C@@H](O)[C@H](N)[C@@H]2O)C[C@@H]2O[C@](O)(C[C@@H](O)C[C@@H](O)CC[C@H](O)[C@@H](O)C[C@@H](O)CC(=O)O[C@H]1C)C[C@H](O)[C@H]2C(=O)O |  | agar |  | MIC90 |  | 96 µg/mL |
| CCOc1ccc(C2=NN(c3ccccc3)C(c3ccc(SC)cc3)C2)cc1 | NCIM 594 | broth dilution |  | inhibition | 2000 µg/mL | 38.25% |
| CCC1/C=C/C=C/C=C/C=C/C(OC2OC(C)C(O)C(N)C2O)CC2OC(O)(CC(O)CC(O)C/C=C/C(=O)OC1C)CC(O)C2C(=O)O | CGMCC 3.289 | broth dilution |  | MIC100 |  | 3.13 µg/mL |
| CN1C(=O)/C(=c2/[nH][nH]c(=O)/c2=C\c2ccccn2)C(=O)c2ccccc21 | ATCC 28542 |  |  | MIC |  | >100 µg/mL |
| COc1cc(/C=C/C(C)=O)ccc1O | MTCC 277 | broth dilution |  | MFC |  | 1041 µM |
| CCOc1ccc2c(C(=O)N3NC(=NC)SC=C3c3c(O)c4ccccc4oc3=O)cc(=O)oc2c1 |  | broth dilution |  | MIC50 |  | 1 µg/mL |
| Nc1ncccc1-c1cc(Cc2ccc(COc3ccccn3)cc2)no1 | IFM50915 | broth dilution | 90% human serum | MIC50 |  | 1 µg/mL |
| O=C(Cc1cc(=O)oc2cc(O)ccc12)N1NC(=Nc2ccccc2)SC=C1c1cc2ccccc2oc1=O |  | broth dilution |  | MIC50 |  | 0.1 µg/mL |
| CCCCCCCCOC(=O)[C@]1(O)C[C@@H](O)[C@@H](O)[C@H](OC(=O)/C=C/c2ccc(O)c(O)c2)C1 | AMP 9 | absorbance |  | MIC50 |  | 500 µg/mL |

For reference, 5 entries again:

| smiles | strain or isolate | read by | setting | measure | dose | result |
|---|---|---|---|---|---|---|
| COc1cc(/C=C/C(C)=O)ccc1O | MTCC 277 | broth dilution |  | MFC |  | 1041 µM |
| COc1cccc(C2=NN(c3ccccc3)C(c3ccc(SC)cc3)C2)c1 | NCIM 594 | broth dilution |  | inhibition | 2000 µg/mL | 51.53% |
| CCC(C)CC(C)CCCCCCCCC(=O)N[C@H]1C[C@@H](O)[C@H](NCCN)NC(=O)[C@@H]2[C@@H](O)CCN2C(=O)[C@H]([C@H](O)CCN)NC(=O)[C@H]([C@H](O)[C@@H](O)c2ccc(O)cc2)NC(=O)[C@@H]2C[C@@H](O)CN2C(=O)[C@H]([C@@H](C)O)NC1=O |  | broth dilution |  | MEC |  | 0.06 µg/mL |
| CN=C1NN(C(=O)Cc2cc(=O)oc3cc(O)ccc23)C(c2cc3ccccc3oc2=O)=CS1 |  | broth dilution |  | MIC50 |  | 1 µg/mL |
| CC(=Nc1cccc2cccc(N=C(C)c3c(O)ccc4c(C)cc(=O)oc34)c12)c1c(O)ccc2c(C)cc(=O)oc12 | MTCC 1883 |  |  | zone | 200 µg/mL | 16 mm |